Assay results as given in PMC12831972 (2025).

Amino acid sequences for entries named in this document (tags omitted). A change or cut given only in a name is not applied to a line headed by its entry.
UniProt P08538: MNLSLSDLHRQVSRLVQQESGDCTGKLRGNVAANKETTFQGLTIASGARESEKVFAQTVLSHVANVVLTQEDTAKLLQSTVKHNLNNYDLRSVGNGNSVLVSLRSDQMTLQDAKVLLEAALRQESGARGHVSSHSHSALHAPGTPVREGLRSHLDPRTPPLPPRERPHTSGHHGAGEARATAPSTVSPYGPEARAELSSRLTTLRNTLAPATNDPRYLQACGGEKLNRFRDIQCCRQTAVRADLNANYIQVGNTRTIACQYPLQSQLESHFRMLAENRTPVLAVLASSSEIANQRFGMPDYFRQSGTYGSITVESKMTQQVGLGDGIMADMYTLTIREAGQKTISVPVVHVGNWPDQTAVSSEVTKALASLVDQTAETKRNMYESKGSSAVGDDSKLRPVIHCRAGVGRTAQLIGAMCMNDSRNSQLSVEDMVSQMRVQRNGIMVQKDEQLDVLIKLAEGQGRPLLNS

Molecular target: YopH (Yersinia pseudotuberculosis serotype I, UniProt P08538)
Conditions: read-out: YopH IC50

Structure (SMILES): O=C(Nc1ccc(OCc2ccccc2)c(Cl)c1)C(=O)Nc1ccccc1NC(=O)[C@H](c1ccccc1)S(=O)(=O)O [8k]
- pIC50: < 4.30

pIC50: −log10 of the molar value.
